Anti-infective test results gathered from many reports (values: NIAID ChemDB through PubChem).

Common to all: tests in culture; organism: Mycobacterium tuberculosis

ECn is the concentration giving n% inhibition of infection, replication or growth. MIC bound: limit read from a one-dose screen. Percent inhibition refers to the dose given; in toxicity tests it is the harm to the cells. Neighbouring rows are from separate reports. MIC50, MIC90 and the like: level of inhibition, or share of isolates inhibited. Two numbers with a dash give a range or band. Blank or dashed fields: not listed here.

smiles,measure,cells,read by,dose,strain or isolate,value
COc1cccc(/C=N/NC(=O)Cc2cccs2)c1,MIC,,resazurin,,H37Rv (ATCC 27294),>100 µg/mL
CO[C@H]1/C=C/O[C@@]2(C)Oc3c(C)c(O)c4c(O)c(c5c(c4c3C2=O)NC2(CCN(C(C)C)CC2)N=5)=NC(=O)/C(C)=C\C=C\[C@H](C)[C@H](O)[C@@H](C)[C@@H](O)[C@@H](C)[C@H](OC(C)=O)[C@@H]1C,MIC,,,,H37Rv,0.001 µg/mL
CCCCCCCSc1cc(C(N)=O)cc(Br)n1,MIC,,,,H37Rv,250 µM
Cn1cnnc1SCc1ccc(C#N)cc1,MIC,,,,My 331/88,1000 µM
NC(=O)c1cnccn1,MIC,,,,T2614/NIACIN+,32 µg/mL
c1ccc(-n2cc(CNC3c4ccccc4-c4ccccc43)nn2)cc1,MIC99,,broth dilution,,H37Rv,>295 µM
COc1ccc(/C=N/NC(=O)Cc2cccs2)c(O)c1,MIC,,resazurin,,H37Rv (ATCC 27294),172.2 µM
CCSc1cc(C(N)=S)cc(Br)n1,MIC,,,,H37Rv,250 µM
CO[C@H]1/C=C/O[C@@]2(C)Oc3c(C)c(O)c4c(O)c(c5c(c4c3C2=O)NC2(CCN(CC(C)C)CC2)N=5)=NC(=O)/C(C)=C\C=C\[C@H](C)[C@H](O)[C@@H](C)[C@@H](O)[C@@H](C)[C@H](OC(C)=O)[C@@H]1C,MIC90,,,,20 strains,0.035–0.07 µg/mL
OC(c1ccc(OCc2ccccc2)cc1)C1CC1,MIC,,,,H37Ra,>25 µg/mL
COC(=O)[C@H]1[C@H]2C[C@@H]3c4[nH]c5cc(OC)ccc5c4CCN3C[C@H]2C[C@@H](O)[C@@H]1OC,MIC bound,,BACTEC,,H37Rv,>12.5 µg/mL
Cn1cnnc1SCc1cc([N+](=O)[O-])cc([N+](=O)[O-])c1,MIC,,,,My 331/88,>1000 µM
N/C(=N/N=C/c1cccc(Br)c1)c1ccccn1,MIC,,,,1814 (THC-resistant),16 µg/mL
Nc1ccccc1Nc1c([N+](=O)[O-])cc(C(F)(F)F)cc1[N+](=O)[O-],MIC,VERO,BACTEC,,H37Rv,12.5 µg/mL
Clc1cccc(CSc2ncn[nH]2)c1,MIC,,,,My 331/88,500 µM
C[C@@H](O)[C@H]1C(=O)N2C(C(=O)O)=C([C@H]3CCCO3)S[C@H]12,MIC90,THP-1,luminescence,,H37Rv,12.35 µM
O=C(N=Nc1c(O)n(CO)c2ccccc12)c1ccncc1,MIC,,,,Human resistant isolate,3 µg/mL
Clc1ccc(CSc2ncn[nH]2)cc1,MIC,,,,My 331/88,1000 µM
CC=CCOc1cc(NC(=S)OC(C)C)ccc1Cl,MIC bound,,BACTEC,,H37Rv,≤12.5 µg/mL
COc1cc(-n2cc(CSC3c4ccccc4-c4ccccc43)nn2)cc(OC)c1OC,MIC99,,broth dilution,,H37Rv,56.11 µM
CCCCCCCCCCCCCCC(F)C(=O)OCC1OC(CO)(OC2OC(CO)C(O)C(O)C2O)C(O)C1O,inhibition,,BACTEC,12.5 µg/mL,H37Rv,-11%
CCCCCCCCCCCC1N=C(N)N=C(N)N1c1cccc(Br)c1,MIC,,,,H37Rv,6.25 µg/mL
O=C(CN1C(=O)c2ccccc2C1=O)C(O)CN1C(=O)c2ccccc2C1=O,inhibition,,resazurin,6.25 µg/mL,H37Rv,-3%
CCSc1cc(C(N)=O)cc(Cl)n1,MIC,,,,H37Rv,500 µM
c1ccc(-n2cc(CSC3c4ccccc4-c4ccccc43)nn2)cc1,MIC99,,broth dilution,,H37Rv,141 µM
O=C(NN1C(=O)C(Cl)C1c1ccc(Cl)cc1)c1ccccc1-c1nc2ccccc2[nH]1,EC50,,,,H37Rv,<0.031 µg/mL
Cc1ccc(/C=N/N=C(/N)c2ccccn2)c(C)c1,MIC,,,,H37Rv,16 µg/mL
O=C(Cc1cccs1)N/N=C/c1ccccc1Cl,MIC,,resazurin,,H37Rv (ATCC 27294),>100 µg/mL
CCN=C1Nc2ccccc2-n2c(nn3nc4ccccc4c23)N1CC,MIC bound,,,,H37Rv,>6.25 µg/mL
COc1ccc(C2C(Cl)C(=O)N2NC(=O)c2ccccc2-c2nc3ccccc3[nH]2)cc1,inhibition,,,0.031 µg/mL,H37Rv,52%
CCOC(=O)NC(=S)Nc1ccn(C)c1,inhibition,,BACTEC,6.25 µg/mL,H37Rv,0%
N/C(=N/N=C/c1ccccc1Br)c1ccccn1,MIC,,,,1814 (THC-resistant),16 µg/mL
O=C(Cc1cccs1)N/N=C/c1ccncc1,MIC,,resazurin,,H37Rv (ATCC 27294),>100 µg/mL
CC(C)(C)C1CCC(=NNC(=O)c2ccncc2)CC1,MIC,,,,H37Rv,0.05 µg/mL
CCCCCCCSc1cc(C(N)=S)cc(Br)n1,MIC,,,,H37Rv,60 µM
CCN(CC)C(=S)S[Se](SC(=S)N(CC)CC)(SC(=S)N(CC)CC)SC(=S)N(CC)CC,inhibition,,BACTEC,128 µg/mL,H37Rv,100%
CO[C@H]1CCC[C@H]2C1=C(C(=O)OC(C)OC(=O)OC1CCCCC1)N1C(=O)[C@H]([C@@H](C)O)[C@@H]21,MIC90,THP-1,luminescence,,H37Rv,5.2 µM
O=C(N/N=C/c1ccc(Cl)cc1)c1ccccc1-c1nc2ccccc2[nH]1,inhibition,,,0.031 µg/mL,H37Rv,42%
N/C(=N/N=C/c1cccc(F)c1)c1ccccn1,MIC,,,,1454 (THC-resistant),64 µg/mL
CCCSc1cc(C(N)=S)cc(Cl)n1,MIC,,,,H37Rv,125 µM
CCOC(=O)c1cc2cc(C)cc(C(=O)c3ccc([N+](=O)[O-])cc3)c2[nH]1,inhibition,,resazurin,6.25 µg/mL,H37Rv,-15%
O=C(N/N=C/c1ccccc1O)c1ccccc1-c1nc2ccccc2[nH]1,EC50,,,,H37Rv,<0.031 µg/mL
O=C(NN1CCCCC1)c1cc(-c2ccc(Cl)cc2)n(-c2ccc(Cl)cc2Cl)n1,MIC90,,agar,,H37Rv,25 µg/mL
FC(F)(F)c1cc(CSc2ncn[nH]2)cc(C(F)(F)F)c1,MIC,,,,My 331/88,250 µM
N/C(=N/N=C/c1ccccc1)c1ccccn1,MIC,,,,1062 (THC-resistant),64 µg/mL
O=[N+]([O-])c1ccc(-n2cc(CS(=O)(=O)C3c4ccccc4-c4ccccc43)nn2)cc1,MIC99,,broth dilution,,H37Rv,>231 µM
CO[C@H]1CCC[C@H]2C1=C(C(=O)O)N1C(=O)[C@H]([C@@H](C)O)[C@@H]21,MIC50,THP-1,luminescence,,H37Rv,1.65 µM
Cc1ccc([N+](=O)[O-])cc1NC(=O)COc1ccc([N+](=O)[O-])c(F)c1,MIC90,,broth dilution,,H37Rv,64 µg/mL
CCSc1cc(C(N)=S)cc(Cl)n1,MIC,,,,H37Rv,125 µM
CN(C)C(=S)SSC(C)(C)C,MIC bound,,BACTEC,,H37Rv,≤128 µg/mL
O=C(N/N=C/c1cccc(/C=N/NC(=O)c2ccncc2)c1)c1ccncc1,MIC90,,,,,0.8 µg/mL
CCCN1CCN(c2cc(=O)c3nc4c(oc3c2)c2c(=O)c3c(O)c(C)c5c(c34)=C(O)[C@@](C)(O/C=C/[C@H](OC)[C@@H](C)[C@@H](OC(C)=O)[C@H](C)[C@H](O)[C@H](C)[C@@H](O)[C@@H](C)/C=C/C=C(/C)C(=O)N2)O5)CC1,MIC90,,,,20 strains,0.07 µg/mL
O=C1c2cc(O)c(O)cc2OC(c2ccc(O)c(O)c2)C1O,MIC,,BACTEC,,H37Rv,≥128 µg/mL
CC1COc2c(N3CCN(C)CC3)c(F)cc3c(=O)c(C(=O)O)cn1c23,MIC90,,,,20 strains,0.1–0.2 µg/mL
NC(=O)c1n[nH]c([C@@H]2O[C@H](COP(=O)(O)O)[C@@H](O)[C@H]2O)n1,inhibition,,BACTEC,12.5 µg/mL,H37Rv,11%
Cc1c(C(=O)NN2CCCCC2)nn(-c2ccccc2)c1-c1ccc(Cl)cc1,MIC90,,agar,,H37Rv,3.13 µg/mL
CC(O)C1C(=O)N2C(C(=O)O)C=C(SC3CN(C4=NCCC4)C3)C12,MIC,,resazurin,,H37Rv,7.5 µM
CO[C@H]1/C=C/O[C@@]2(C)Oc3c(C)c(O)c4c(O)c(c5c(c4c3C2=O)NC2(CCN(C)CC2)N=5)=NC(=O)/C(C)=C\C=C\[C@H](C)[C@H](O)[C@@H](C)[C@@H](O)[C@@H](C)[C@H](OC(C)=O)[C@@H]1C,MIC,,,,H37Rv,0.001 µg/mL
Cn1c(=O)nc2n(-c3ccc(Cl)c(C(F)(F)F)c3)c3ccccc3nc-2c1=O,inhibition,,BACTEC,12.5 µg/mL,H37Rv,85%
N/C(=N/N=C/c1ccc(Cl)cc1)c1ccccn1,MIC,,,,1062 (THC-resistant),64 µg/mL
CCOC(=O)c1nnn(CC(=O)c2ccccc2)c1C(=O)OCC,MIC,,agar,,H37Rv,2.13 µg/mL
O=[N+]([O-])c1ccccc1-n1cc(CSC2c3ccccc3-c3ccccc32)nn1,MIC99,,broth dilution,,H37Rv,>250 µM
O=C(Cc1cccs1)N/N=C/c1ccc(O)cc1,MIC,,resazurin,,H37Rv (ATCC 27294),404.7 µM
CO[C@H]1/C=C/O[C@@]2(C)Oc3c(C)c(O)c4c(O)c(c5c(c4c3C2=O)NC2(CCNCC2)N=5)=NC(=O)/C(C)=C\C=C\[C@H](C)[C@H](O)[C@@H](C)[C@@H](O)[C@@H](C)[C@H](OC(C)=O)[C@@H]1C,MIC,,,,H37Rv,0.004 µg/mL
Nc1c(S(=O)(=O)O)cc(S(=O)(=O)O)c2ccc(N=Nc3ccc(/C=C/c4ccc(N=Nc5ccc6c(S(=O)(=O)O)cc(S(=O)(=O)O)c(N)c6c5O)cc4S(=O)(=O)O)c(S(=O)(=O)O)c3)c(O)c12,inhibition,,resazurin,6.25 µg/mL,H37Rv,20%
Cc1ccc(/C=N/N=C(/N)c2ccccn2)cc1,MIC,,,,1062 (THC-resistant),32 µg/mL
O=C(N/N=C/c1ccccc1[N+](=O)[O-])c1ccccc1-c1nc2ccccc2[nH]1,EC50,,,,H37Rv,>0.031 µg/mL
CCOC(=O)c1nn(-c2ccc(Cl)cc2Cl)c(-c2ccc(Cl)cc2)c1C,MIC90,,agar,,H37Rv,25 µg/mL
COc1ccccc1/C=N/N=C(/N)c1ccccn1,MIC,,,,1062 (THC-resistant),32 µg/mL
COc1cc(/C=N/NC(=O)CC(C)O)ccc1O,MIC bound,,BACTEC,,H37Rv,>12.5 µg/mL
CO[C@H]1/C=C/O[C@@]2(C)Oc3c(C)c(O)c4c(=O)c(c5oc6cc(N7CCN(C(C)C)CC7)cc(=O)c6nc5c4c3=C2O)NC(=O)/C(C)=C\C=C\[C@H](C)[C@H](O)[C@@H](C)[C@@H](O)[C@@H](C)[C@H](OC(C)=O)[C@@H]1C,MIC90,,,,20 strains,0.07 µg/mL
CCOC(=O)C(C)c1nc2cc(F)c(F)cc2[nH]c1=O,inhibition,,BACTEC,6.25 µg/mL,H37Rv,28%
CCCCCCCCCCCC(CC1OC(=O)C1CCCCCC)OC(=O)C(CC(C)C)NC=O,MIC,,,,H37Rv,50 µg/mL
O=C1C=C/C(=C(/c2ccc(O)c(S(=O)(=O)O)c2)c2ccccc2C(=O)O)C=C1S(=O)(=O)O,inhibition,,BACTEC,12.5 µg/mL,H37Rv,0%
O=C(Cc1cccs1)N/N=C/c1cccc(O)c1,MIC,,resazurin,,H37Rv (ATCC 27294),>100 µg/mL
CCn1c(O)c(N=NC(=N)SCC(C)C)c2ccccc21,inhibition,,BACTEC,12.8 µg/mL,H37Rv,48%
O=C(NN1C(=O)C(Cl)C1c1ccccc1)c1ccccc1-c1nc2ccccc2[nH]1,EC50,,,,H37Rv,<0.031 µg/mL
COC1=C2CC(C)CC(OC)C(O)C(C)/C=C(\C)C(OC(N)=O)C(OC)/C=C\C=C(/C)C(=O)NC(=C(C=NC(C)(C)C)C1=O)C2=O,MIC,,,,ETA-R,>12.5 µg/mL
O=C(N/N=C/c1ccc(O)cc1)c1ccccc1-c1nc2ccccc2[nH]1,inhibition,,,0.031 µg/mL,H37Rv,61%
CCCCCc1cc(O)cc2c1Oc1cc(O)cc(C(=O)CCCC)c1C(=O)O2,MIC bound,,BACTEC,,H37Rv,≤128 µg/mL
CCOC(=O)c1nn(-c2ccccc2)c(-c2ccc(Cl)cc2)c1C,MIC90,,agar,,H37Rv,25 µg/mL

The first 6 rows once more:

| smiles | measure | cells | read by | dose | strain or isolate | value |
|---|---|---|---|---|---|---|
| COc1cccc(/C=N/NC(=O)Cc2cccs2)c1 | MIC |  | resazurin |  | H37Rv (ATCC 27294) | >100 µg/mL |
| CO[C@H]1/C=C/O[C@@]2(C)Oc3c(C)c(O)c4c(O)c(c5c(c4c3C2=O)NC2(CCN(C(C)C)CC2)N=5)=NC(=O)/C(C)=C\C=C\[C@H](C)[C@H](O)[C@@H](C)[C@@H](O)[C@@H](C)[C@H](OC(C)=O)[C@@H]1C | MIC |  |  |  | H37Rv | 0.001 µg/mL |
| CCCCCCCSc1cc(C(N)=O)cc(Br)n1 | MIC |  |  |  | H37Rv | 250 µM |
| Cn1cnnc1SCc1ccc(C#N)cc1 | MIC |  |  |  | My 331/88 | 1000 µM |
| NC(=O)c1cnccn1 | MIC |  |  |  | T2614/NIACIN+ | 32 µg/mL |
| c1ccc(-n2cc(CNC3c4ccccc4-c4ccccc43)nn2)cc1 | MIC99 |  | broth dilution |  | H37Rv | >295 µM |